The source of these data is ChEMBL document CHEMBL1142975 (J Med Chem, 2007).

Where only a bound is given, the exact number is not on record here.

The assay has as its system Cowpox virus. The experiment in a line: Antiviral activity against cowpox virus by CPE assay. The format is functional, organism-based.
As to `Cn1cccc1C(=O)NN1C(=O)[C@@H]2C3C=CC(C4CC43)[C@@H]2C1=O` (some centres undefined), the EC50 (in general, the concentration that produces a half-maximal response) is greater than 20 µM.
The same measure for `O=C(NN1C(=O)[C@@H]2C3C=CC(C4CC43)[C@@H]2C1=O)c1ccc(Br)cc1` (some centres undefined): 1.6 µM.
With `O=C(NN1C(=O)[C@@H]2C3C=CC(C4CC43)[C@@H]2C1=O)c1ccccc1Br` (some centres undefined), the EC50 is greater than 20 µM.
In turn, `COc1ccc(C(=O)NN2C(=O)[C@@H]3C4C=CC(C5CC54)[C@@H]3C2=O)cc1` (some centres undefined) returned an EC50 greater than 20 µM.
`O=C(NN1C(=O)[C@@H]2C3C=CC(C4CC43)[C@@H]2C1=O)c1ccc([N+](=O)[O-])cc1` (some centres undefined) came in with an EC50 of 0.15 µM.
As to `O=C(NN1C(=O)[C@@H]2C3C=CC(C4CC43)[C@@H]2C1=O)c1ccccn1` (some centres undefined), the concentration for a half-maximal effect (EC50) was greater than 20 µM.
For `O=C(NN1C(=O)[C@@H]2C3C=CC(C4CC43)[C@@H]2C1=O)c1cccnc1` (some centres undefined), the EC50 is greater than 20 µM.
`O=C(NN1C(=O)[C@@H]2C3C=CC(C4CC43)[C@@H]2C1=O)c1cccc(Br)c1` (some centres undefined) gave an EC50 of 0.6 µM.
`Nc1ccc(C(=O)NN2C(=O)[C@@H]3C4C=CC(C5CC54)[C@@H]3C2=O)cc1` (some centres undefined) displayed a half-maximal effective concentration (EC50) greater than 20 µM.
The same measure for `Cc1cc(C(=O)NN2C(=O)[C@@H]3C4C=CC(C5CC54)[C@@H]3C2=O)[nH]n1` (some centres undefined): greater than 20 µM; for `O=C(NN1C(=O)[C@@H]2C3CCC(C4CC43)[C@@H]2C1=O)c1ccc(C(F)(F)F)cc1` (some centres undefined): 0.3 µM; for `O=C(NN1C(=O)[C@@H]2C3C=CC(C4CC43)[C@@H]2C1=O)c1ccc(C(F)(F)F)cc1` (some centres undefined): 0.6 µM.
The value for `O=C(NN1C(=O)[C@@H]2C3C=CC(C4CC43)[C@@H]2C1=O)c1ccncc1` (some centres undefined) was 17.2 µM; that for `CN(C)c1ccc(C(=O)NN2C(=O)[C@@H]3C4C=CC(C5CC54)[C@@H]3C2=O)cc1` (some centres undefined) was 15.5 µM.
